Results of unrelated studies side by side (data: NIAID ChemDB).

Shared fields: cytotoxicity tests; cells: A549; read-out: CC50

Lines come from different laboratories, so protocols vary. CCn: concentration that lowers growth or viability of the cells by n%. Blank or dashed fields: not listed here.

SMILES,method,result
NS(=O)(=O)c1ccc(NC(=O)c2ccccc2[Se][Se]c2ccccc2C(=O)Nc2ccc(S(N)(=O)=O)cc2)cc1,MTT,60 µg/mL
O=c1cc(-c2ccc(O)c(-c3c(O)cc4oc(-c5ccc(O)cc5)cc(=O)c4c3O)c2)oc2cc(O)cc(O)c12,visual reading,56 µg/mL
O=C1c2c(O)cc(O)cc2O[C@H](c2ccc(O)cc2)[C@H]1c1c(O)cc(O)c2c(=O)cc(-c3ccc(O)c(O)c3)oc12,sulforhodamine / absorbance,>50 µM
Clc1ccc(-c2nc(SCC3CC3)n[nH]2)cc1,MTT,>100 µg/mL
CC1CC(C)CN(c2ccc([N+](=O)[O-])s2)C1,resazurin,84 µg/mL
C1=C(c2nc(-c3ccccc3)no2)c2ccccc2C12CCN(CC1CC1)CC2,resazurin,21 µM
CCCNC(=O)Nc1ccccc1[Se][Se]c1ccccc1NC(=O)NCCC,MTT,3 µg/mL
C[C@H]1[C@H](O)C(=O)CC2[C@]3(C)CC[C@@]4(C)C5CC(C)(C)CC[C@]5(C)CC[C@]4(C)C3CC[C@@]21C,sulforhodamine / absorbance,>50 µM
COC(=O)[C@@H]1[C@H](c2cc(OC)c(OC(C)=O)c(OC(C)=O)c2)c2cc3c(cc2C2=NOC[C@@H]21)OCO3,-,20 µM
C1=C(c2nc(-c3ccncc3)no2)c2ccccc2C12CCN(CC1CCCO1)CC2,resazurin,75.7 µM
O=C1O[C@@H]2[C@@H](OC(=O)c3cc(O)c(O)c(O)c3-c3c1cc(O)c(O)c3O)[C@@H](O)O[C@@H]1COC(=O)c3cc(O)c(O)c(O)c3-c3c(O)c(O)c4oc(=O)c5c(c(O)c(O)c6oc(=O)c3c4c65)-c3c(cc(O)c(O)c3O)C(=O)O[C@@H]21,XTT,319 µM
COc1ccc(CN2C(=O)C3(CCN(CC4CCCO4)CC3)c3ccccc32)cc1,resazurin,>50 µM
COc1cc2c(cc1OC)-c1c3c(cc4ccnc(c14)C2=O)OCO3,sulforhodamine / absorbance,36.7 µM
COc1cc(O)cc2oc3cc(O)c(O)cc3c(=O)c12,sulforhodamine / absorbance,>50 µM
NS(=O)(=O)c1ccc(NC(=O)CCC[Se][Se]CCCC(=O)Nc2ccc(S(N)(=O)=O)cc2)cc1,MTT,20 µg/mL
CC1CCN(c2ccc([N+](=O)[O-])s2)CC1,resazurin,21 µg/mL
O=c1[nH][se]c2ncccc12,-,25 µg/mL
COc1ccc(-c2noc(C3=CC4(CCN(CC(N)=O)CC4)c4ccccc43)n2)cc1,resazurin,60.5 µM
CCCCn1[se]c2ccccc2c1=O,visual reading,5 µg/mL
CCCCNS(=O)(=O)c1ccc(NC(=O)CCC[Se][Se]CCCC(=O)Nc2ccc(S(=O)(=O)NCCCC)cc2)cc1,MTT,40 µg/mL
C=CCOC(=O)O[C@@H]1COC(Oc2c3c(c(-c4ccc5c(c4)OCO5)c4cc(OC)c(OC)cc24)C(=O)OC3)[C@H](OC(=O)OCC=C)[C@H]1O,absorbance,0.7383 µM
O=C1OCC2OC(O)C(O)C(O)C2OC(=O)c2cc(O)c(O)c(O)c2-c2c(O)c(O)c3oc(=O)c4c(c(O)c(O)c5oc(=O)c2c3c54)-c2c1cc(O)c(O)c2O,XTT,311 µM
O=c1c2ccccc2[se]n1C1C2CC3CC(C2)CC1C3,visual reading,78 µg/mL
O=c1c2cccnc2[se]n1-c1ccc(Cl)cc1,-,50 µg/mL
CC(C)=CC[C@H]1C[C@]2(C[C@H]3CCC(C)(C)C=C3C)C(=O)C3=C(OC(C)(C)CC3)[C@@](C(=O)c3ccccc3)(C2=O)C1(C)C,sulforhodamine / absorbance,>50 µM
CC1CCCN(c2ccc([N+](=O)[O-])s2)C1,resazurin,>20 µg/mL
O=c1c2ccccc2[se]n1CO,visual reading,4 µg/mL
CCCNC(=S)Nc1ccccc1[Se][Se]c1ccccc1NC(=S)NCCC,MTT,117 µg/mL
COc1cc([C@@H]2c3cc4c(cc3[C@H](OC(C)=O)[C@@H]3COC(=O)[C@@H]23)OCO4)cc(OC(C)=O)c1OC(C)=O,-,2.2 µM
O=c1cc(-c2ccc(Oc3c(O)cc4oc(-c5ccc(O)cc5)cc(=O)c4c3O)cc2)oc2cc(O)cc(O)c12,neutral red,27 µg/mL
COc1cc2c(O[C@@H]3OC[C@](O)(COC(C)=O)[C@H]3O)c3c(c(-c4ccc5c(c4)OCO5)c2cc1OC)C(=O)OC3,absorbance,4.632 µM
Cc1ccc(-c2noc(C3=CC4(CCN(CC5CCCO5)CC4)c4ccccc43)n2)cn1,resazurin,>100 µM
COC(=O)Cn1[se]c2ccccc2c1=O,visual reading,6.1 µg/mL
O=C1C[C@@H](c2ccc(O)cc2)Oc2cc(O)c(-c3c(O)cc4c(c3O)C(=O)C[C@@H](c3ccc(O)cc3)O4)c(O)c21,visual reading,22 µg/mL
COC(=O)[C@@H]1[C@H](c2cc(OC)c3nccnc3c2)c2cc3c(cc2C2=NOC[C@@H]21)OCO3,-,2.8 µM
O=c1c2cc(O)c(O)cc2oc2cc(O)cc(O)c12,sulforhodamine / absorbance,44.85 µM
COc1cc([C@@H]2c3cc4c(cc3[C@H](OC(C)=O)[C@@H]3COC(=O)[C@@H]23)OCO4)cc(O)c1O,-,5.84 µM
CCCNC(=O)Oc1ccccc1[Se][Se]c1ccccc1OC(=O)NCCC,MTT,15 µg/mL
CC(C)(C)n1[se]c2ncccc2c1=O,-,10 µg/mL
O=C(Nc1cccc(Cl)c1)n1[se]c2ccccc2c1=O,visual reading,4.3 µg/mL
CC(=O)c1cc([N+](=O)[O-])c(N2CCC(C)CC2)s1,resazurin,65 µg/mL

The last 3 rows once more:

| SMILES | method | result |
|---|---|---|
| CC(C)(C)n1[se]c2ncccc2c1=O | - | 10 µg/mL |
| O=C(Nc1cccc(Cl)c1)n1[se]c2ccccc2c1=O | visual reading | 4.3 µg/mL |
| CC(=O)c1cc([N+](=O)[O-])c(N2CCC(C)CC2)s1 | resazurin | 65 µg/mL |